Assay results: publication PMC9780535

Target: EnvR (UniProt Q5BQ43)
Test: EMSA
Conditions: EnvR 0.8 mg/mL, DNA 1.5-15 ng/uL, binding buffer, pH and temperature not stated, recombinant protein, label: unlabelled, SYBR green post-stain, probe letters rebuilt from the primers and the genome

TCCCAGATCTCACTGAATAAATCCGACTTATTTTTGAAATGCCAATAGATTGCGCCGCGCGTCACGCCAGCAGCGTTCGCAATCTCCGCCAGCGAGGTTGCCGATACGCCTTGCTGCGAGAACAAACGCAGGGCCACATCCAGGATGTGTTGTCGTGTCTCCAGCGCTTGTTGTTTGGTTTTTCGTGCCATATGTCGGTGAATTTACAGGCGTTAGATTTACATACATTTATGGATGTATGTACCATAGCACGACGATAATATAAACGCAGCAATGGGTTTAAGGACCTTTGACCATTGA (double strand) [acrAB promoter WT]
binding result: binds

The exact form of at least one protein or probe is not confirmed.
